Results from US6706706B2, “Non-nucleoside reverse transcriptase inhibitors” (priority 2002, dated 2004).

Assays:
HIV-1 RT K103N/Y181C = HIV-1 RT K103N/Y181C (Human immunodeficiency virus type 1 group M subtype B, UniProt P03366, K702N/Y780C); assay: Reverse Transcriptase (RT) assay, radiometric SPA, double mutant enzyme; assay type: biochemical
[1] = tested on: HIV replication in C8166 cells, virus coding for mutant reverse transcriptase K103N/Y181C; assay: ELISA (p24) assay for activity in cell culture, mutant virus; assay type: cell-based, HIV-1; details: Human immunodeficiency virus 1, C8166, 72 h, read-out: EC50 K103N/Y181C (nM)

SMILES	IC50 (HIV-1 RT K103N/Y181C) [nM]	EC50 [1] [nM]
CCN1c2ncc(CCOc3ccc(C(=O)O)c(C)c3C)cc2C(=O)N(C)c2cccnc21 [Entry 1001]	> 100	< 50
CCN1c2ncc(CCOc3ccc(C(=O)O)cc3C)cc2C(=O)N(C)c2cccnc21 [Entry 1002]	> 100	< 50
CCc1cc(C(=O)O)ccc1OCCc1cnc2c(c1)C(=O)N(C)c1cccnc1N2CC [Entry 1003]	> 100	
CCN1c2ncc(CCOc3ccc(C(=O)O)c(O)c3C)cc2C(=O)N(C)c2cccnc21 [Entry 1004]	> 100	> 100
CCN1c2ncc(CCOc3ccc(C(=O)O)cc3Br)cc2C(=O)N(C)c2cccnc21 [Entry 1005]	> 100	
CCN1c2ncc(CCOc3ccc(C(C)C(=O)O)cc3C)cc2C(=O)N(C)c2cccnc21 (stereo not drawn) [Entry 1006]	> 100	
CCN1c2ncc(CCOc3ccc(CCC(=O)O)cc3C)cc2C(=O)N(C)c2ccc(Cl)nc21 [Entry 1007]	50 to 100	50 to 100
CCN1c2ncc(CCOc3ccc(CCC(=O)O)cc3C)cc2C(=O)N(C)c2cccnc21 [Entry 1008]	> 100	> 100
CCN1c2ncc(CCOc3ccc(C=CC(=O)O)cc3C)cc2C(=O)N(C)c2ccc(Cl)nc21 [Entry 1009]	< 50	< 50
CCN1c2ncc(CCOc3ccc(C=CC(=O)O)cc3C)cc2C(=O)N(C)c2cccnc21 [Entry 1010]	< 50	< 50
CCN1c2ncc(CCOc3ccc(CC(=O)O)cc3Cl)cc2C(=O)N(C)c2cccnc21 [Entry 1011]	> 100	
CCN1c2ncc(CCOc3ccc(CC(=O)O)cc3Br)cc2C(=O)N(C)c2cccnc21 [Entry 1012]	> 100	
CCN1c2ncc(CCOc3ccc(CC(=O)O)c(C)c3C)cc2C(=O)N(C)c2cccnc21 [Entry 1013]	> 100	
CCN1c2ncc(CCOc3ccc(CC(=O)O)cc3C)cc2C(=O)N(C)c2cccnc21 [Entry 1014]	> 100	> 100
CCN1c2ncc(CCOc3ccc(C(=O)O)cc3C)cc2C(=O)N(C)c2ccc(Cl)nc21 [Entry 1015]	50 to 100	
CCN1c2ncc(CCOc3ccc(C(=O)O)cc3C)cc2C(=O)Nc2c(C)cc(Cl)nc21 [Entry 1016]	> 100	
CCN1c2ncc(CCOc3ccc(C(=O)O)cc3C)cc2C(=O)N(C)c2ccc(C)nc21 [Entry 1017]	> 100	

SMILES	IC50 (HIV-1 RT K103N/Y181C) [nM]	EC50 [1] [nM]
CCN1c2ncc(CCOc3ccc(C(=O)O)cc3C)cc2C(=O)Nc2c(C)ccnc21 [Entry 1018]	> 100	< 50
CCN1c2ncc(CCOc3ccc(C(=O)O)cc3C)cc2C(=O)N(C)c2ccc(OC)nc21 [Entry 1019]	> 100	
CCN1c2ncc(CCOc3ccc(C(=O)O)cc3C)cc2C(=O)N(C)c2ccc(F)nc21 [Entry 1020]	> 100	
CCOc1ccc2c(n1)N(CC)c1ncc(CCOc3ccc(C(=O)O)cc3C)cc1C(=O)N2C [Entry 1021]	> 100	
CCN1c2ncc(CCOc3ccc(C(=O)O)cc3[N+](=O)[O-])cc2C(=O)N(C)c2cccnc21 [Entry 1022]	> 100	> 100
CCN1c2ncc(CCOc3ccc(C(=O)O)cc3Cl)cc2C(=O)N(C)c2cccnc21 [Entry 1023]	> 100	> 100
CCN1c2ncc(CCOc3ccc(C(=O)O)c(N)c3)cc2C(=O)N(C)c2cccnc21 [Entry 1024]	> 100	
CCN1c2ncc(CCOc3ccc(C(=O)O)cc3C(F)(F)F)cc2C(=O)N(C)c2cccnc21 [Entry 1027]	> 100	
CCN1c2ncc(CCOc3ccc(C(=O)O)cc3C)cc2C(=O)N(C)c2ccc(N(C)C)nc21 [Entry 1028]	> 100	
CCN1c2ncccc2NC(=O)c2cc(CCOc3ccc(C(=O)O)cc3C)cnc21 [Entry 1029]	> 100	
CCN1c2ncc(CCOc3ccc(C(=O)OC)cc3C)cc2C(=O)N(C)c2cccnc21 [Entry 1030]	< 50	< 50
CCc1cc(C(=O)OC)ccc1OCCc1cnc2c(c1)C(=O)N(C)c1cccnc1N2CC [Entry 1031]	< 50	
CCN1c2ncc(CCOc3ccc(C(=O)OC)cc3Cl)cc2C(=O)N(C)c2cccnc21 [Entry 1032]	< 50	
CCN1c2ncc(CCOc3ccc(C(=O)OC)cc3C(F)(F)F)cc2C(=O)N(C)c2cccnc21 [Entry 1033]	> 100	
CCOc1ccc2c(n1)N(CC)c1ncc(CCOc3ccc(C(=O)OC)cc3C)cc1C(=O)N2C [Entry 1034]	50 to 100	
CCN1c2ncc(CCOc3ccc(C(=O)OC)c(F)c3)cc2C(=O)N(C)c2cccnc21 [Entry 1035]	> 100	
